Reference: paper PMC4976356, “Structural insight into β-Clamp and its interaction with DNA Ligase in Helicobacter pylori” (Scientific Reports, 2016)

System: Hpβ-clamp
Assay: SAXS of β-clamp, ligase and their mixture
Parameters: species or system Helicobacter pylori
Details: Figure S5

B1: β-clamp: β-clamp from Helicobacter pylori 26695 (protein)
chain: MKISVSKNDLENALRYLQAFLDKKDASSIASHIHLEVIKEKLFLKASDSDIGLKSYIFTQSSDKEGVGTINGKKFLDIISCLKDSNIILETKDDSLAIKQNKSSFKLPMFDADEFPEFPVIDPKVSIEVNAPFLVDAFKKIAPVIEQTSHKRELAGILMQFDQKHQTLSVVGTDTKRLSYTQLEKISIHSTEEDISCILPKRALLEILKLFYENFSFKSDGMLAVIENEMHTFFTKLIDGNYPDYQKILPKEYISSFTLGKEEFKESIKLCSSLSSTIKLTLEKNNALFESLDSEHSETAKTSVEIEKGLDIEKAFHLGVNAKFFLEALNALGTTQFVLRCNEPSSPFLIQESLDEKQSHLNAKISTLMMPITL
modifications: left off: His tag (from the vector pET 28(b) and the Ni Sepharose column), end not stated, state not stated
Dmax: 9.8 nM
radius of gyration (Rg): 3.87
